# According to patent US20260000783A1, “ANTIBODY-DRUG CONJUGATE WITH IMPROVED T[…]” (priority 2018, published 2026):
# What was measured:
# [1] = system: A2058 cells (EGFR-/HER2^+/−); assay: Targeted protein toxin mediated cell killing on A2058 cells
# [2] = system: HeLa cells (EGFR^+/−/HER2^+/−); assay: Targeted protein toxin mediated cell killing on HeLa cells; details: read-out: cell killing, IC50; HeLa; titrated on fixed 50 pM trastuzumab-saporin
Substance,cell killing activity ([1]; + 10 pM CD71mab-saporin),cell killing activity ([1]; + 10 pM trastuzumab-saporin),IC50 [2],"IC50 ([1]; read-out: cell killing, IC50, titrated on fixed 50 pM trastuzumab-saporin)"
"Cetuximab-(Cys-L-QSmix) 4,1: QSmix-EMCH conjugated via cysteine residues (Cys) to cetuximab, DAR 4,1",no activity,no activity,–,–
"cetuximab-(Cys-L-SO1861) 3,7: SO1861-EMCH conjugated via cysteine residues (Cys) to cetuximab, DAR 3,7",–,–,400 nM,> 400 nM
